Anti-infective test results gathered from many reports (values: NIAID ChemDB through PubChem).

Common to all: whole-cell or culture tests; species: Candida glabrata

MIC50, MIC90 and the like: level of inhibition, or share of isolates inhibited. Rows are shuffled and stem from different studies. ECn: concentration that inhibits the pathogen or its effect by n%.

NC(=O)c1cc[n+](CCC[n+]2cccc(/C=N/O)c2)cc1.[Br-].[Br-] ; read-out: EC50 ; method: broth dilution ; result: >20 µg/mL
CC(C)(C)N1C(=O)C=CC1=O ; read-out: MIC80 ; method: broth dilution ; strain: DSM 11226 ; result: 4 µg/mL
COc1ccccc1OC/C(=N/O)c1ccccc1 ; read-out: MIC ; method: broth dilution ; strain: ATCC 90030 ; conditions: 24 h ; result: >125 µg/mL
COc1ccc(/C=N\O)cc1 ; read-out: MIC100 ; method: broth dilution ; result: 6620 µM
CCC[CH2][Sn+3].Fc1ccccc1N=C([S-])N/N=C(\c1ccccc1)c1ccccn1 ; read-out: MIC ; method: broth dilution ; strain: ATCC 90030 ; result: 13.42 µM
COc1ccc(N2C(=O)C=CC2=O)cc1 ; read-out: MIC80 ; method: broth dilution ; strain: DSM 11226 ; result: 4 µg/mL
O/N=C\c1ccccc1 ; read-out: MIC ; result: 4130 µM
OC(CCn1ccnc1)c1cccc(C(O)c2ccc(Cl)cc2)c1 ; read-out: MIC ; method: broth dilution ; strain: RTCC 1054 ; result: >64 µg/mL
NC=Nc1ccc(SCc2cc(Br)cc(Br)c2)cc1 ; read-out: MFC ; strain: BG2 ; result: >100 µM
O/N=C/c1cccc[n+]1Cc1ccc(C[n+]2ccccc2/C=N/O)s1.[Cl-].[Cl-] ; read-out: EC50 ; method: broth dilution ; result: >20 µg/mL
Cc1ccc(C(O)c2cccc(C(=O)CCn3ccnc3)c2)cc1 ; read-out: MIC ; method: broth dilution ; strain: RTCC 1040 ; result: 64 µg/mL
C/C(=N\NC([S-])=Nc1ccccc1Cl)c1ccccn1.CCC[CH2][Sn+3] ; read-out: MIC ; method: broth dilution ; strain: ATCC 90030 ; result: 14.53 µM
O=C(COc1ccccc1)c1ccccc1 ; read-out: MIC ; method: broth dilution ; strain: ATCC 90030 ; conditions: 24 h ; result: >125 µg/mL
NC=Nc1ccc(SCc2ccc(Cl)cc2)cc1 ; read-out: MFC ; strain: BG2 ; result: 50 µM
O/N=C\c1ccccc1Cl ; read-out: MIC100 ; result: 2850 µM
CCOc1ccc2nc3cc(N=C4NC(=O)/C(=C\C=C\c5ccc([N+](=O)[O-])o5)S4)ccc3c(N)c2c1 ; read-out: MFC ; method: broth dilution ; result: 1000 µg/mL
COc1ccc(/C=N/O)cc1 ; read-out: MIC100 ; result: 6620 µM
O=C(CCn1ccnc1)c1ccc(Cl)cc1 ; read-out: MIC ; method: broth dilution ; strain: RTCC 1054 ; result: >64 µg/mL
CC1CC(=O)N(c2ccc(F)cc2)C1=O ; read-out: MIC ; method: broth dilution / turbidity ; strain: CCC 115-2000 ; result: 125 µg/mL
CC(C)CC1NC(=O)CC(CCCCCCCCC(C)O)OC(=O)C(CC(C)C)NC(=O)C(CC(C)C)NC(=O)C(CC(C)C)NC(=O)C(C(C)C)NC(=O)C(CC(=O)O)NC(=O)C(CC(C)C)NC1=O ; read-out: MFC ; method: visual reading ; strain: MTCC 3019 ; result: 4 µg/mL
OC(CCn1ccnc1)c1ccc(-c2ccccc2)cc1 ; read-out: MIC ; method: broth dilution ; strain: RTCC 1040 ; result: >64 µg/mL
Nc1scc2c1c(=O)oc1ccc3ccccc3c12 ; read-out: MIC ; method: broth dilution ; strain: IP35 ; result: 32 µg/mL
C=CCc1ccc(OC)c(OC)c1 ; read-out: MIC90 ; method: turbidity ; strain: 2892 ; result: 345 µg/mL
O/N=C\c1ccc(F)cc1 ; read-out: MIC ; result: 7200 µM
COc1cccc(OCC(=O)c2ccccc2)c1 ; read-out: MIC ; method: broth dilution ; strain: ATCC 90030 ; conditions: 48 h ; result: >125 µg/mL
O=C1C=CC(=O)N1C1CCCCC1 ; read-out: MIC80 ; method: broth dilution ; strain: DSM 11226 ; result: 1 µg/mL
C/C(=N\NC([S-])=Nc1ccccc1[N+](=O)[O-])c1ccccn1.CCC[CH2][Sn+3] ; read-out: MIC ; method: broth dilution ; strain: ATCC 90030 ; result: 7.13 µM
ON=Cc1ccc[n+](Cc2csc3ccccc23)c1.[Cl-] ; read-out: EC50 ; method: broth dilution ; result: >20 µg/mL
O=C(CCn1ccnc1)c1cccc(C(O)c2ccc(Br)cc2)c1 ; read-out: MIC ; method: broth dilution ; strain: RTCC 1054 ; result: 16 µg/mL
Nc1ncccc1-c1cc(Cc2ccc(COc3ccccn3)cc2)no1 ; read-out: MIC50 ; method: broth dilution ; result: 0.03 µg/mL
Cc1ccccc1N1C(=O)CC(C)C1=O ; read-out: MIC ; method: broth dilution / turbidity ; strain: CCC 115-2000 ; result: 125 µg/mL
O=C(CCn1ccnc1)c1cccc(O)c1 ; read-out: MIC ; method: broth dilution ; strain: RTCC 1040 ; result: >64 µg/mL
COc1ccccc1OCC(=O)c1ccccc1 ; read-out: MIC ; method: broth dilution ; strain: ATCC 90030 ; conditions: 24 h ; result: >125 µg/mL
CC1CC(=O)N(CCCc2ccccc2)C1=O ; read-out: MIC ; method: broth dilution / turbidity ; strain: CCC 115-2000 ; result: 125 µg/mL
COc1cc(OC/C(=N/O)c2ccccc2)cc(OC)c1OC ; read-out: MIC ; method: broth dilution ; strain: ATCC 90030 ; conditions: 48 h ; result: >125 µg/mL
C[C@@H](c1ncncc1F)[C@](O)(Cn1cncn1)c1ccc(F)cc1F ; read-out: MIC90 ; method: broth dilution ; result: 1 µg/mL
O/N=C(/COc1cccc(Cl)c1)c1ccccc1 ; read-out: MIC ; method: broth dilution ; strain: ATCC 90030 ; conditions: 24 h ; result: 15.63 µg/mL
O/N=C/c1cc[n+](Cc2ccc(C[n+]3ccc(/C=N/O)cc3)s2)cc1.[Cl-].[Cl-] ; read-out: EC50 ; method: broth dilution ; result: >20 µg/mL
Cc1cc(C)c(N2C(=O)C=CC2=O)c(C)c1 ; read-out: MIC80 ; method: broth dilution ; strain: DSM 11226 ; result: 1 µg/mL
O=C(CCn1ccnc1)c1ccc(Br)cc1 ; read-out: MIC ; method: broth dilution ; strain: RTCC 1040 ; result: 64 µg/mL
O/N=C/c1cccc[n+]1Cc1csc2ccccc12.[Cl-] ; read-out: EC50 ; method: broth dilution ; result: >20 µg/mL
C[C@@H]1C(=O)N(c2ccccc2)C(=O)[C@@H]1C ; read-out: MIC ; method: broth dilution / turbidity ; strain: CCC 115-2000 ; result: 62.5 µg/mL
O/N=C\c1ccccc1O ; read-out: MIC100 ; result: 3600 µM